Data source: PubChem BioAssay AID1224833 (University of Georgia, 2016)
The whole screen tested about 12,000 reagents; this is an unselected part. Over the whole deposit, about 5,600 (46%) got an active call. 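Active calls cover z-scores past 1 in both directions, so they include lowered as well as raised rotavirus replication.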 Unmarked entries are inactive.

Screen: 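Human genes whose knock-down alters rotavirus replication in monkey cells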 (primary screen)
System: monkey MA104 kidney cells
Knock-down reagent: siRNA pool against human genes, 50 nM
Duration: 48 h knock-down before infection; read 24 h after infection
Treatment: infection with rotavirus strain RV3 two days after transfection; infectious dose for this stage not given
Measurement: 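Rotavirus antigen per well by fluorescent immunoassay, normalised to non-targeting control wells on each plate and given as a standard z-score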
Reading the numbers: z-score vs non-targeting control: higher = more rotavirus replication than with non-targeting control
Call rule: In these data the active calls have z-score vs non-targeting control at about -1 or lower, or at about 1 or higher
Calls: active = z-score beyond 1 either way; inactive = z-score within 1 of zero

no.	gene	z-score vs non-targeting control
1	ST6GAL1 (ST6 beta-galactoside alpha-2,6-sialyltransferase 1)	-1.16 (active)
2	SYCP2L (synaptonemal complex protein 2 like)	1.3 (active)
3	FAM193A (family with sequence similarity 193 member A)	0.6
4	ABRA (actin binding Rho activating protein)	-0.669
5	SEMA4B (semaphorin 4B)	-2.83 (active)
6	ERMN (ermin)	-0.643
7	FHOD1 (formin homology 2 domain containing 1)	0.268
8	TPRX1 (tetrapeptide repeat homeobox 1)	-0.632
9	EGFL8 (EGF like domain multiple 8)	-0.794
10	NPTN (neuroplastin)	-0.505
11	CLLU1-AS1 (CLLU1 antisense RNA 1)	-0.163
12	ANKRD20A2P (ankyrin repeat domain 20 family member A2, pseudogene)	-0.186
13	CHTF18 (chromosome transmission fidelity factor 18)	-0.0742
14	STRN (striatin)	1.16 (active)
15	NLGN4Y (neuroligin 4 Y-linked)	-0.53
16	SLC7A6OS	-0.735
17	SDCCAG8 (SHH signaling and ciliogenesis regulator SDCCAG8)	-0.988
18	POLR2J3 (RNA polymerase II subunit J3)	0.793
19	ADTRP (androgen dependent TFPI regulating protein)	-0.157
20	KIAA0753	-0.403
21	JTB (jumping translocation breakpoint)	1.21 (active)
22	OLAH (oleoyl-ACP hydrolase)	-0.98
23	SNAPC5 (small nuclear RNA activating complex polypeptide 5)	-0.0235
24	OTP (orthopedia homeobox)	-1.3 (active)
25	NLRC3 (NLR family CARD domain containing 3)	1.54 (active)
26	SNX19 (sorting nexin 19)	-0.596
27	KRT81 (keratin 81)	-1.71 (active)
28	DCAF4 (DDB1 and CUL4 associated factor 4)	0.384
29	MYO16 (myosin XVI)	-1.27 (active)
30	KIZ (kizuna centrosomal protein)	-0.356
31	KLF14 (KLF transcription factor 14)	-1.71 (active)
32	SPATA19 (spermatogenesis associated 19)	0.292
33	KATNBL1 (katanin regulatory subunit B1 like 1)	-1.85 (active)
34	OR52I2 (olfactory receptor family 52 subfamily I member 2)	-1.77 (active)
35	EDDM3A (epididymal protein 3A)	-1.64 (active)
36	FAM228A (family with sequence similarity 228 member A)	1.06 (active)
37	GREB1 (growth regulating estrogen receptor binding 1)	-1.2 (active)
38	TNFRSF11B (TNF receptor superfamily member 11b)	0.597
39	ABCC2 (ATP binding cassette subfamily C member 2)	-0.82
40	ZBTB10 (zinc finger and BTB domain containing 10)	-0.615
41	GATA6 (GATA binding protein 6)	0.545
42	OR10A2 (olfactory receptor family 10 subfamily A member 2)	1.09 (active)
43	GTF2IRD2B (GTF2I repeat domain containing 2B)	-1.64 (active)
44	SANBR (SANT and BTB domain regulator of CSR)	-1.85 (active)
45	PHLDA2 (pleckstrin homology like domain family A member 2)	0.404
46	ATP5MC3 (ATP synthase membrane subunit c locus 3)	-1.41 (active)
47	ZNF7 (zinc finger protein 7)	-0.788
48	ZBTB43 (zinc finger and BTB domain containing 43)	-2.92 (active)
49	CDON (cell adhesion associated, oncogene regulated)	-1.75 (active)
50	EGFLAM (EGF like, fibronectin type III and laminin G domains)	0.743
51	CRCP (CGRP receptor component)	-0.884
52	DNAJC12 (DnaJ heat shock protein family (Hsp40) member C12)	-0.571
53	PYGB (glycogen phosphorylase B)	1.27 (active)
54	PMP22 (peripheral myelin protein 22)	-0.776
55	FAM171A1 (family with sequence similarity 171 member A1)	-1.81 (active)
56	RAPGEF6 (Rap guanine nucleotide exchange factor 6)	-0.696
57	ANGPTL4 (angiopoietin like 4)	1.79 (active)
58	LENG8 (leukocyte receptor cluster member 8)	-1.33 (active)
59	CSRP1 (cysteine and glycine rich protein 1)	-1.31 (active)
60	TSLIG2 (tRNA splicing ligase complex subunit 2)	-0.808
61	OR51T1 (olfactory receptor family 51 subfamily T member 1)	-4.01 (active)
62	MRPL34 (mitochondrial ribosomal protein L34)	-1.64 (active)
63	ZPBP (zona pellucida binding protein)	0.298
64	HBE1 (hemoglobin subunit epsilon 1)	1.05 (active)
65	GPR153 (G protein-coupled receptor 153)	-0.948
66	UNC79 (unc-79 subunit of NALCN channel complex)	-3.03 (active)
67	GCSAM (germinal center associated signaling and motility)	0.787
68	CABLES2 (Cdk5 and Abl enzyme substrate 2)	-2.43 (active)
69	RNF148 (ring finger protein 148)	0.565
70	TPX2 (TPX2 microtubule nucleation factor)	0.436
71	KDM4D (lysine demethylase 4D)	-0.711
72	RRP1 (ribosomal RNA processing 1)	-0.215
73	CABCOCO1 (ciliary associated calcium binding coiled-coil 1)	-0.346
74	SYNE1 (spectrin repeat containing nuclear envelope protein 1)	-0.162
75	G6PD (glucose-6-phosphate dehydrogenase)	1.94 (active)
76	CCKAR (cholecystokinin A receptor)	-1.21 (active)
77	OR8G2P (olfactory receptor family 8 subfamily G member 2 pseudogene)	0.105
78	MPV17L2 (MPV17 mitochondrial inner membrane protein like 2)	0.444
79	FAM174A (family with sequence similarity 174 member A)	-0.778
80	COL1A2 (collagen type I alpha 2 chain)	0.668
81	OR8D4 (olfactory receptor family 8 subfamily D member 4)	0.314
82	ORC3 (origin recognition complex subunit 3)	-0.721
83	CNIH2 (cornichon family AMPA receptor auxiliary protein 2)	0.0157
84	FADS1 (fatty acid desaturase 1)	-2 (active)
85	ALS2 (alsin Rho guanine nucleotide exchange factor ALS2)	-1.15 (active)
86	PPP6R1 (protein phosphatase 6 regulatory subunit 1)	-1.07 (active)
87	ASTN1 (astrotactin 1)	1.5 (active)
88	SBDS (SBDS ribosome maturation factor)	-0.835
89	ATP6V1E1 (ATPase H+ transporting V1 subunit E1)	-0.9
90	SNRPF (small nuclear ribonucleoprotein polypeptide F)	-0.125
91	CSTF3 (cleavage stimulation factor subunit 3)	-0.819
92	RAB14 (RAB14, member RAS oncogene family)	-1.67 (active)
93	EIF3G (eukaryotic translation initiation factor 3 subunit G)	-0.708
94	MED11 (mediator complex subunit 11)	-2.29 (active)
95	ZNF566 (zinc finger protein 566)	0.0766
96	TIGIT (T cell immunoreceptor with Ig and ITIM domains)	-1.42 (active)
97	CLDN18 (claudin 18)	0.9
98	KRTAP4-4 (keratin associated protein 4-4)	0.502
99	TECRL (trans-2,3-enoyl-CoA reductase like)	-1.47 (active)
100	LARP4B (La ribonucleoprotein 4B)	-1.21 (active)
101	OR4C45	-0.439
102	NEUROD6 (neuronal differentiation 6)	1.22 (active)
103	PALB2 (partner and localizer of BRCA2)	-0.607
104	GNLY (granulysin)	-0.546
105	SPACA5 (sperm acrosome associated 5)	-1.01 (active)
106	CD79B (CD79b molecule)	1.35 (active)
107	ZNF180 (zinc finger protein 180)	0.427
108	STARD3 (StAR related lipid transfer domain containing 3)	1.7 (active)
109	SEZ6L2 (seizure related 6 homolog like 2)	-1.25 (active)
110	LIN28A (lin-28 RNA binding posttranscriptional regulator A)	-0.281

15 entries from above in another layout:
gene,z-score vs non-targeting control
GTF2IRD2B (GTF2I repeat domain containing 2B),-1.64 (active)
SANBR (SANT and BTB domain regulator of CSR),-1.85 (active)
PHLDA2 (pleckstrin homology like domain family A member 2),0.404
ATP5MC3 (ATP synthase membrane subunit c locus 3),-1.41 (active)
ZNF7 (zinc finger protein 7),-0.788
ZBTB43 (zinc finger and BTB domain containing 43),-2.92 (active)
"CDON (cell adhesion associated, oncogene regulated)",-1.75 (active)
"EGFLAM (EGF like, fibronectin type III and laminin G domains)",0.743
CRCP (CGRP receptor component),-0.884
DNAJC12 (DnaJ heat shock protein family (Hsp40) member C12),-0.571
PYGB (glycogen phosphorylase B),1.27 (active)
PMP22 (peripheral myelin protein 22),-0.776
FAM171A1 (family with sequence similarity 171 member A1),-1.81 (active)
RAPGEF6 (Rap guanine nucleotide exchange factor 6),-0.696
ANGPTL4 (angiopoietin like 4),1.79 (active)
